{"sequences": {"note": "The chains behind the UniProt entries cited, without tags or fusion partners. Where a name states a change or a piece, a line headed by the entry shows the natural chain unless it says otherwise.", "UniProt P02768": "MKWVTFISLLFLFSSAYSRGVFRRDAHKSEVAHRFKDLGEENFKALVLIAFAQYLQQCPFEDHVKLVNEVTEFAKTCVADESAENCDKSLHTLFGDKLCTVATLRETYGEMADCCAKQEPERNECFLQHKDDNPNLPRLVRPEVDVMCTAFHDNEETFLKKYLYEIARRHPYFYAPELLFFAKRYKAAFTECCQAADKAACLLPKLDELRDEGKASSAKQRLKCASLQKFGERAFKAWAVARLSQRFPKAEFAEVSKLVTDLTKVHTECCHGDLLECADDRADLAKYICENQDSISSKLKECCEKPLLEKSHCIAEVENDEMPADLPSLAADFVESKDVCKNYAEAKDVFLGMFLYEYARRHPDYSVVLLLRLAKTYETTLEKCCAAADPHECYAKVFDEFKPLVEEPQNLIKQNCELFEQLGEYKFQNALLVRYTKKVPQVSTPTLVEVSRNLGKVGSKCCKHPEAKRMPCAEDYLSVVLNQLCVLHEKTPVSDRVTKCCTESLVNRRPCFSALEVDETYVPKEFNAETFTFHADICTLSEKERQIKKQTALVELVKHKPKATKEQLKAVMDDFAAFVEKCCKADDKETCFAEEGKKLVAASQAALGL"}, "source": "patent US20080199882A1", "about": "“METHOD FOR DETECTION OF BIOMARKERS FOR EXPOSURE TO STACHYBOTRYS” (published 2008)", "key": {"[1]": {"experiment": "Satratoxin G adducts in pronase digests of cat serum, MALDI-TOF MS", "conditions": "two cats with acute pulmonary hemorrhage from a mold-infiltrated house"}, "[2]": {"experiment": "Amino acid-satratoxin G adducts in pronase digests of human serum, MALDI-TOF MS", "conditions": "three patients with documented exposure to S. chartarum, 2 mL serum"}, "human serum albumin [3]": {"biological_target": "T1, human serum albumin (Homo sapiens, UniProt P02768)", "experiment": "MS analysis of intact rHSA incubated with satratoxin G (adduct formation in vitro)", "conditions": "incubation with a 20-fold excess of toxin in vitro, ESI-TOF and MALDI-TOF MS"}, "human serum albumin [4]": {"biological_target": "T1, human serum albumin", "experiment": "SDS-PAGE and Western blot of human serum albumin incubated with satratoxin G, anti-satratoxin G antibody", "conditions": "PBS, 37° C., 20 h, increasing concentrations of satratoxin G, reduced and boiled samples"}}}
{"substance": "satratoxin G", "values": [{"measurement": "immunoreactive free toxin in sera of exposed animals", "setting": "1 h-72 h post exposure, 4.0×10^5 spores/gm body weight", "value": "No immunoreactive free toxin could be detected"}, {"measurement": "free toxin in the blood by ELISA at later times", "setting": "rat pups, after the immediate time point", "value": "No free toxin in the blood could subsequently be detected"}, {"measurement": "satratoxin G adducts in serum", "setting": "[1]", "value": "Serum samples from both cats were positive for satratoxin G adducts"}, {"measurement": "satratoxin G amino acid adducts in serum", "setting": "[2]", "value": "cysteinyl adducts were detected in all three of the exposed patient samples"}, {"measurement": "number of amino acid residues in the albumin molecule modified", "setting": "human serum albumin [3]", "value": "up to ten amino acid residues in the albumin molecule are modified"}, {"measurement": "anti-satratoxin G staining of the HSA band at ~67 kDa", "setting": "human serum albumin [4]", "value": "intensity of staining increasing with increasing concentrations of satratoxin G"}]}
